These are literature values, as cited in patent US12138267B2, “Methods of treating respiratory depression modulated by a non-opioid agent” (Enalare Therapeutics Inc., priority 2021, dated 2024).

For this series, the system named is healthy participants. The note with it: high dose (1.1 mg/kg/h), Roozekrans et al., 2014; cited from earlier work.

Take `CCCNc1nc(NCCC)nc(N(C)OC)n1` [Compound A]: the Alfentanil-induced ventilatory suppression result is “significantly attenuated”.
